Data as given in PMC3445454, “Broad and Cross-Clade CD4^+ T-Cell Responses Elicited by a DNA Vaccine Encoding Highly Conserved and Promiscuous HIV-1 M-Group Consensus Peptides” (PLoS ONE, 2012).
Substitutions are numbered along the chain they refer to.

Columns and labels:
Test in all cases: biochemical
[1] = target: HLA-DQ DQA1*05:01/DQB1*02:01 (Homo sapiens, UniProt P01909+P01920, A45G/A70V/D89A/E106A/E77G/E98D/H199R/L107V/N214S/P84L/P87L/T103K/T109R/T172A/T60S/V78E/V99I/Y58L/Y62S/Y69I/Y79F)
[2] = target: T1, HLA-DP DPA1*01:03/DPB1*02:01 (Homo sapiens, UniProt P04440+P20036, A65V/A84D/A85E/K98E); assay type: binding
T1 sequence (P20036 29-260): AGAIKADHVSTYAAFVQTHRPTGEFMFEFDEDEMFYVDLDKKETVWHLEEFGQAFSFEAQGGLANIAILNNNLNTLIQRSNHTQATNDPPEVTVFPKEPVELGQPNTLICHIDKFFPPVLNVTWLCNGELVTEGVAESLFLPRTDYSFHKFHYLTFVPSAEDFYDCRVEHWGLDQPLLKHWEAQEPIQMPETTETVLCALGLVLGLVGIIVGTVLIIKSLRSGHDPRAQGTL
T1 sequence (P04440 30-258 A65V/A84D/A85E/K98E): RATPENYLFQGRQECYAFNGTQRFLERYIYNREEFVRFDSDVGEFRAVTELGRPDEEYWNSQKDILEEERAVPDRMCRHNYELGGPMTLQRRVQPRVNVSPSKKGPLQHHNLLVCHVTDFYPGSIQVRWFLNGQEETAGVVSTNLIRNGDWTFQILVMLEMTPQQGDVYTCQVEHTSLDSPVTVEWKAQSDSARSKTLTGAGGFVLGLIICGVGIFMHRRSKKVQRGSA

[3] = target: T2, HLA-DP DPA1*02:01/DPB1*05:01 (Homo sapiens, UniProt P04440+P20036, A65V/A84E/F191V/F64L/G113D/G114E/K142R/L158P/M116V/M62Q/P115A/Q81R/R125K/T114A/T199I/T259P/V234M); assay type: binding
T2 sequence (P20036 29-260 A42M/M62Q/Q81R/T114A/K142R/L158P/F191V/T259P): T1 sequence (P20036 29-260) with A14M, M34Q, Q53R, T86A, K114R, L130P, F163V, T231P
T2 sequence (P04440 30-258 F64L/A65V/A84E/G113D/G114E/P115A/M116V/R125K/T199I/V234M): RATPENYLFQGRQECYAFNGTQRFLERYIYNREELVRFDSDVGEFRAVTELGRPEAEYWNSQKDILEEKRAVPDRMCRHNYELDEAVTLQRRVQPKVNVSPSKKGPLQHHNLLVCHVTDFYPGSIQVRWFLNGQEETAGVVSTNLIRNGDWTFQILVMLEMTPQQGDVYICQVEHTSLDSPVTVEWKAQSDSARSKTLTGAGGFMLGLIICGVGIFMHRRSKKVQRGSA

[4] = target: T3, HLA-DP DPA1*01:03/DPB1*03:01 (Homo sapiens, UniProt P04440+P20036, A65V/A84D/A85E/E86D/F38Y/G113D/G114E/G40L/I94L/L37V/M105V/M116V/P115A/R125K/T199I); assay type: binding
T3 sequence (P20036 29-260): T1 sequence (P20036 29-260)
T3 sequence (P04440 30-258 L37V/F38Y/G40L/A65V/A84D/A85E/E86D/I94L/M105V/G113D/G114E/P115A/M116V/R125K/T199I): T2 sequence (P04440 30-258 F64L/A65V/A84E/G113D/G114E/P115A/M116V/R125K/T199I/V234M) with L8V, F9Y, G11L, L35F, E55D, A56E, E57D, I65L, M76V, M205V

[5] = target: HLA-DQ DQA1*01:02/DQB1*05:02 (Homo sapiens, UniProt P01909+P01920, A157S/A45G/A70V/C70R/D89S/E106S/E118A/E183D/E77G/F83G/G63E/H151Q/H199R/H252R/H253Q/I129T/I235V/I88M/INS77G/K197Q/L107V/L117V/L119Y/L178F/L71W/L74F/L85Q/L91A/L98M/M46L/N214S/P87R/Q116E/Q158H/Q256R/Q76K/R102G/R240Q/R75S/R78G/S102Y/S185I/S41F/S97I/T103A/T109R/T121G/T122I/T172A/T86R/V148I/V229M/V68A/V73E/Y34C/Y58G/Y62H)
[6] = target: T4, HLA-DP DPA1*01:03/DPB1*20:01 (Homo sapiens, UniProt P04440+P20036, A65V/A84D/A85E/E86D/F38Y/G113D/G114E/G40L/I94L/L37V/M116V/P115A/R125K/T199I); assay type: binding
T4 sequence (P20036 29-260): T1 sequence (P20036 29-260)
T4 sequence (P04440 30-258 L37V/F38Y/G40L/A65V/A84D/A85E/E86D/I94L/G113D/G114E/P115A/M116V/R125K/T199I/V234M): T2 sequence (P04440 30-258 F64L/A65V/A84E/G113D/G114E/P115A/M116V/R125K/T199I/V234M) with L8V, F9Y, G11L, L35F, E55D, A56E, E57D, I65L

[7] = target: HLA-DQ DQA1*01:01/DQB1*05:01 (Homo sapiens, UniProt P01909+P01920, A157S/A45G/A70V/C70R/D89V/E106S/E118A/E183D/E77G/F83G/G63E/H151Q/H199R/H252R/H253Q/I129T/I235V/I88M/INS77G/K197Q/L107V/L117V/L119Y/L178F/L71W/L74F/L85Q/L91A/L98M/M46L/N214S/P87R/Q116E/Q256R/Q57E/Q76K/R102G/R240Q/R75S/R78G/S102Y/S185I/S41F/S97I/T103A/T109R/T121G/T122I/T172A/T86R/V148I/V68A/V73E/Y34C/Y58G/Y62H)
[8] = target: HLA-DP DPA1*03:01/DPB1*04:02 (Homo sapiens, UniProt P04440+P20036, A42M/A65V/A84D/A85E/L207M/L97S)

| Compound | IC50 [1] [nM] | IC50 [2] [nM] | IC50 [3] [nM] | IC50 [4] [nM] | IC50 [5] [nM] | IC50 [6] [nM] | IC50 [7] [nM] | IC50 [8] [nM] |
| --- | --- | --- | --- | --- | --- | --- | --- | --- |
| CC[C@H](C)[C@H](NC(=O)[C@H](CCC(=O)O)NC(=O)CN)C(=O)N[C@@H](Cc1ccc(O)cc1)C(=O)N[C@@H](CCCCN)C(=O)N[C@@H](CCCNC(=N)N)C(=O)N[C@@H](Cc1c[nH]c2ccccc12)C(=O)N[C@H](C(=O)N[C@H](C(=O)N[C@@H](CC(C)C)C(=O)NCC(=O)N[C@@H](CC(C)C)C(=O)N[C@@H](CC(N)=O)C(=O)N[C@@H](CCCCN)C(=O)N[C@H](C(=O)N[C@H](C(=O)N[C@@H](CCCNC(=N)N)C(=O)N[C@@H](CCSC)C(=O)N[C@@H](Cc1ccc(O)cc1)C(N)=O)C(C)C)[C@@H](C)CC)[C@@H](C)CC)[C@@H](C)CC [p24(127-145)] | 7800 | 230 | 32 | 1650 | 4990 | 181 | 3350 | 134 |
| CSCC[C@H](NC(=O)[C@@H]1CCCN1C(=O)[C@H](CCCNC(=N)N)NC(=O)[C@H](CC(C)C)NC(=O)[C@@H]1CCCN1C(=O)[C@@H](NC(=O)[C@H](CCC(N)=O)NC(=O)[C@@H]1CCCN1C(=O)[C@H](CCCNC(=N)N)NC(=O)[C@@H](NC(=O)[C@@H]1CCCN1C(=O)[C@H](Cc1ccccc1)NC(=O)CN)C(C)C)C(C)C)C(=O)N[C@H](C(=O)N[C@@H](Cc1ccc(O)cc1)C(=O)N[C@@H](CCCCN)C(=O)NCC(=O)N[C@@H](C)C(=O)N[C@@H](Cc1ccccc1)C(=O)N[C@@H](CC(=O)O)C(=O)N[C@@H](CC(C)C)C(N)=O)[C@@H](C)O [nef(67-87)] | 6460 | 58 | 1870 | 953 | 27000 | 3990 | 7860 | 165 |
| CC[C@H](C)[C@H](NC(=O)[C@@H](NC(=O)[C@H](CCC(=O)O)NC(=O)[C@@H]1CCCN1C(=O)[C@@H](N)CO)C(C)C)C(=O)N1CCC[C@H]1C(=O)N[C@@H](CCSC)C(=O)N[C@@H](Cc1ccccc1)C(=O)N[C@@H](CO)C(=O)N[C@@H](C)C(=O)N[C@@H](CC(C)C)C(=O)N[C@@H](CO)C(=O)N[C@@H](CCC(=O)O)C(=O)NCC(=O)N[C@@H](C)C(=O)N[C@H](C(N)=O)[C@@H](C)O [p24(33-48)] | 799 | 2990 | 4370 | 541 | 2890 | 479 | 5410 | 3950 |
